# Experimental data published in paper PMC6105893.
# The exact form of at least one protein or probe is not confirmed.
# Target: LeuO (rLeuO) (UniProt A0A087INQ4)
# Experiment: EMSA
# Details: 0-80 nM LeuO, poly(dI-dC) 1 ug, unlabeled probe competitor 1-100 ng; 10 mM Tris-HCl pH 7.4, 10 mM KCl, 1 mM EDTA, 0.1 mM DTT, 50 ug/ml BSA, 5% glycerol, 1 ug poly(dI-dC), 10 ng probe in 20 ul, 30 min at 37 C; 6% neutral polyacrylamide gel; recombinant protein; label: 32P (vhuα-EMSAB primer); probe letters rebuilt from the primers and the genome
sequence,measurement,value
TGCCCTTGAAGAAATCCCTCAATCACATCTGCCGTGAGGTAAATCGTATTATAGGAGTATGGCAGCCCCTTATAAATAGGTGCTTTGAGGCTGAAATCCAAGAGCTTTATGTGGTTATTCGGTAACAATTTGTGAGTTATTACTCAGAAAACGGTTAAAAGTAAGGCATTGAAGCGAAAGAATGACGACAAACCTTTGCCAGACGGGGGCTTTATGCTTTAGAGTGAAATGAATTCGATAACCTATGAGAAGGGAAACCTAATGAACAAGACCCAATTAATCGACTTTATCGCAGAGAAAGCA (double strand) [vhuA upstream region],binding result,binds
